Test results published in publication PMC6375650 (PLoS Biology, 2019).

Target: H7 Sh2 HA (A/Shanghai/2/2013), ectodomain trimer, cleavage state not stated (Influenza A virus A/Shanghai/2/2013 …, UniProt R4NN21, strain, biotin (HAs biotinylated for biolayer interferometry))
Test: BLI
Conditions: both partners purified

Binder | binding result
H7.5 Fab H-S74K (Fab, V domains shown) VH: QVQLVQSGAEVKKPGASVKVSCKASGYTLTRYYFHWVRQAPGQGFEWMGIINPNGGGTSYAQKFGDRVIMTSDMKTSTIYMELSSLRSEDTAVYYCARDMPYYHDSGGPLFDLWGQGTLVTVSS VL: EIVMTQSPSSLSASVGDRVTITCRPSQSISTFLNWYEQKPGKAPKLLIYDASSLQSGVPSRFSGSGSGTEFTLTISSLQPEDFATYYCQQSFSTPYTFGQGTRLEIK | binds
H7.5 Fab H-M73R (Fab, V domains shown) VH: QVQLVQSGAEVKKPGASVKVSCKASGYTLTRYYFHWVRQAPGQGFEWMGIINPNGGGTSYAQKFGDRVIMTSDRSTSTIYMELSSLRSEDTAVYYCARDMPYYHDSGGPLFDLWGQGTLVTVSS VL: EIVMTQSPSSLSASVGDRVTITCRPSQSISTFLNWYEQKPGKAPKLLIYDASSLQSGVPSRFSGSGSGTEFTLTISSLQPEDFATYYCQQSFSTPYTFGQGTRLEIK | binds
